Assay results reported in patent US20210009716A1 (IN3BIO, published 2021).

Biological target: EGFR (ERB1), the natural receptor for EGF (Homo sapiens (Human), UniProt P00533 25-1210)
Assay: not described

B1: synthetic NRG-CTB molecule (ligand)
chain: GTSHLVKCPLSHEAYCVNGGECFMVKDLSNPSRYLCKCPNEFTGDRCQNYVMASF
notes: also called NRG-BVN hybrid polypeptide; synthetic NRG-BVN hybrid polypeptide
B1: no binding.
